Pooled drug test results. Numbers come from NIAID ChemDB, via PubChem.

All rows: growth or infection tests; organism: HIV-1; endpoint: inhibition

An empty or dashed field is not shown.

compound,read by,cells,dose,changes,strain or isolate,conditions,value
COC(=O)C(N)CC(=O)COC(=O)[C@H]1O[C@H](O[C@H]2CC[C@]3(C)[C@H]4C(=O)C=C5[C@@H]6C[C@@](C)(C(=O)O)CC[C@]6(C)CC[C@@]5(C)[C@]4(C)CC[C@H]3C2(C)C)[C@H](O[C@@H]2O[C@H](C(=O)O)[C@@H](O)[C@H](O)[C@H]2O)[C@@H](O)[C@@H]1O.S,-,MT-4,250 µg/mL,-,-,-,95.31%
O=C(O)P(=O)(O)O,p24 / antigen,H9,150 µM,-,IIIB,4 d,88%
CC(C)(CO)[C@@H](O)C(=O)NCCCC(=O)O,-,MT-4,10 µg/mL,-,LAV,-,0%
Cc1cn([C@H]2C[C@H](N=[N+]=[N-])[C@@H](CO)O2)c(=O)[nH]c1=O,p24 / RT activity,PBMC,0.0284 µM,-,Clinical isolate,clinical isolate,90%
Cc1cn([C@H]2C[C@H](N=[N+]=[N-])[C@@H](CO)O2)c(=O)[nH]c1=O,RT activity,U-937,0.2 µM,-,LAV-Bru,11 d,0%
CC(C)[C@H](NC(=O)c1ccc2ccccc2n1)C(=O)N[C@@H](Cc1ccccc1)[C@H](O)CN1CC[C@@H](OCc2ccncc2)C[C@H]1C(=O)NC(C)(C)C,p24,C8166,0.005 µM,-,HXB2,-,90%
CC(C)C(NS(=O)(=O)N(C)Cc1ccccn1)C(=O)N[C@@H](Cc1ccccc1)C(O)[C@H](Cc1ccccc1)NC(=O)C(NS(=O)(=O)N(C)Cc1ccccn1)C(C)C,cytopathic effect,MT-4,100 µM,-,IIIB,-,0%
Cc1cn([C@H]2C[C@H](N=[N+]=[N-])[C@@H](COP(=O)(O)OC[C@H]3OC(O)[C@@H](O)[C@@H](O)[C@@H]3O)O2)c(=O)[nH]c1=O,RT activity,CEM,25 µM,-,LAV-Bru,15 d,95%
Nc1ccn([C@H]2CC[C@@H](CO)O2)c(=O)n1,ELISA,MT-4,10 µM,-,IIIB,-,95%
c1cc(CN2CCCNCCNCCCNCC2)ccc1CN1CCCNCCNCCCNCC1,p24,PBMC,0.1 µM,-,JR-FL CLADE B R5,-,36%
CCC[C@@]1(CCc2ccccc2)CC(O)=C([C@H](CC)c2cccc(NS(=O)(=O)c3ccc(C(F)(F)F)cn3)c2)C(=O)O1,p24,PBMC,0.32 µM,-,Isolate UJ00009,-,90%
COc1cc(C[C@@]2(O)C(=O)OC[C@@H]2Cc2ccc(OC)c(OC)c2)ccc1O,XTT,MT-2,0.3 µg/mL,-,IIIB,-,67%
CC(C)C(C)/C=C/[C@@H](C)[C@H]1CCC2C3=C[C@@H](O)[C@@]4(O)C[C@@H](O)CC[C@]4(C)C3CC[C@@]21C,cytopathic effect / microscopy,MT-4,15.6 µM,-,-,-,0%
CCCCN1C(=O)C(=C/C=C/C=C2/Oc3ccccc3N2CCCS(=O)(=O)O)C(=O)N(CCCC)C1=S,ELISA,PBMC,200 µg/mL,-,IIIB,11 d,85%
O=C(O)CCCCCCCCCCCI,cytopathic effect / XTT,CEM + CEM-SS,63.2 µM,-,IIIB,-,70.5%
Nc1nc(NC2CC2)c2ncn([C@H]3C=C[C@@H](CO)C3)c2n1,RT activity,PBL (resting) + PBL,4 µM,-,SF162 R5,-,97%
CCC(C)C(=O)O[C@@H]1C(=O)/C=C2/C3=CC(=O)O[C@@H](c4ccoc4)[C@]3(C)CC[C@@H]2[C@@]2(C)C(=O)C[C@]1(C)[C@@H]2[C@@H](O)C(=O)OC,luciferase / luminescence,SupT1,20 µM,-,NL4-3,pseudotyped,14.77%
CCCCCCCCCCCCCC(=O)OC[C@@H](COP(=O)(O)OC[C@@H]1CC[C@H](n2cnc3c(N)ncnc32)O1)OC(=O)CCCCCCCCCCCCC,ELISA,CEM13 + CEM,10 µM,-,LAV-Bru,-,90%
O=C(OCC1(COC(=O)c2cccnc2)CCCC(COC(=O)c2cccnc2)(COC(=O)c2cccnc2)C1O)c1cccnc1,-,MT-4,100 µg/mL,-,LAV,-,0%
COc1cc(O)c2c(=O)oc3cc(O)cc(C)c3c2c1,luciferase,MT-2,60 µM,-,NL4-3,pseudotyped,88%
C/C(=C(/CCO)SSCC1CCCO1)N(C=O)Cc1cnc(C)nc1N,p24,U-937/HIV-1(RF) + U-937,50 µM,-,RF,-,60%
CC(=O)OC1C(=O)C2=C(C(=O)CC3C(C)(C)[C@@H](O)CC[C@]23C)[C@]2(C)[C@H](O)C[C@H]([C@H](C)CC(=O)CC(C)C(=O)O)[C@@]12C,cytopathic effect / microscopy,MT-4,1000 µM,-,-,-,0%
Nc1ccn([C@H]2CC[C@@H](CO)O2)c(=O)n1,syncytia,HT4 + HT4-6C,0.01 µM,-,LAV-1,-,55%
CC(=O)CCCCn1c(=O)c2c(ncn2C)n(C)c1=O,-,MT-4,100 µg/mL,-,LAV,-,0%
Nc1ncnc2c1ncn2[C@H]1CC[C@@H](CO)O1,ELISA,CEM13 + CEM,10 µM,-,LAV-Bru,-,90%
Nc1ncnc2c1ncn2[C@H]1CC[C@@H](CO)O1,virus yield,U-937,10 µM,-,LAV-1,-,90%
O=C(O)CCCCCCCCCCCO,cytopathic effect / XTT,CEM + CEM-SS,20 µM,-,IIIB,-,24.7%
C[C@@H](Cn1cnc2c(N)ncnc21)OCP(=O)(O)O,p24 / syncytia,Macrophage + Monocytes/macrophages,5 µM,-,BaL,-,89%
OC[C@@H]1CC[C@H](n2cnc3c(Cl)ncnc32)O1,cytopathic effect / trypan blue,ATH9 + ATH8,20 µM,-,IIIB,-,100%
CC(=O)Nc1ccc(/C=C/c2ccc(N=C=S)cc2S(=O)(=O)O)c(S(=O)(=O)O)c1,syncytia,JM,50 µg/mL,-,GB8,-,85%
Nc1ccn([C@H]2C=C[C@@H](CO)[C@H](CO)S2)c(=O)n1,p24 / antigen,PBMC,0.1 µM,-,-,-,10%
CCCCCCCCCCCCCC(=O)OC[C@@H](COP(=O)(O)OC[C@@H]1CC[C@H](n2ccc(N)nc2=O)O1)OC(=O)CCCCCCCCCCCCC,ELISA,CEM13 + CEM,10 µM,-,LAV-Bru,-,99%
O=c1[nH]cnc2c1ncn2[C@H]1CC[C@@H](CO)O1,p24,PBMC,0.25 µM,-,IIIB,-,30%
CCc1cc(NCc2nc3c(Cl)ccc(Cl)c3o2)c(=O)[nH]c1C,antigen,MT-4,0.01 µM,RT-P236L,HXBE30(RT-P236L),-,100%
CN1CCN(CCCN2c3ccccc3Sc3ccc(Cl)cc32)CC1,-,MT-4,10 µg/mL,-,LAV,-,>96%
C[C@H](Cn1cnc2c(N)nc(N)nc21)OCP(=O)(O)O,p24 / syncytia,Macrophage + Monocytes/macrophages,0.05 µM,-,BaL,-,92%
Nc1c(S(=O)(=O)O)cc2c3c(cc(S(=O)(=O)O)cc13)C(=O)N(NC(=O)N/N=C/c1cccc(C=O)c1)C2=O,syncytia,MT-2,400 µM,-,-,-,100%
COC(=O)C(O)[C@H]1[C@]2(C)C[C@@]3(OC(=O)C(C)C)[C@]1(C)[C@H]1CC[C@]4(C)C(=CC(=O)O[C@H]4c4ccoc4)[C@@]1(O)[C@@]3(O)C(=O)[C@H]2OC(C)=O,luciferase / luminescence,SupT1,100 µM,-,NL4-3,pseudotyped,31.83%
C[C@H](CC[C@H](O)C(C)(O)CO)[C@H]1CC[C@@]2(C)C3=CC[C@H]4C(C)(C)C(=O)CC[C@]4(C)C3=CC[C@]12C,cytopathic effect / microscopy,MT-4,7.8 µM,-,-,-,100%
CCNc1cccnc1N1CCN(C(=O)c2cc3cc(OC)ccc3[nH]2)CC1,MTT,PBMC,1 µM,-,Seropositive clinical isolate D,-,48%
COC(=O)C(O)[C@H]1C(C)(C)[C@H](OC(C)=O)[C@]2(O)[C@@H](OC(=O)C(C)C)[C@@]34O[C@]2(O)[C@]1(C)[C@H]3CC[C@]1(C)C4=CC(=O)O[C@H]1c1ccoc1,luciferase / luminescence,SupT1,20 µM,-,NL4-3,pseudotyped,0%
CC(C)=CCOc1c2occc2cc2ccc(=O)oc12,luciferase,Jurkat cells,25 µM,-,NL4-3 Recombinant VSV-pseudotyped,-,69%
CC(C)CN(C[C@@H](O)[C@H](Cc1ccccc1)NC(=O)[C@@H](NC(=O)CNCc1cccc(F)c1)C(C)(C)C)S(=O)(=O)c1cccc(N)c1,virus yield,MT-2,0.011 µM,-,THAI 9466,-,90%
O=C1N(Cc2ccc(CO)cc2)[C@H](Cc2ccccc2)[C@H](O)[C@@H](O)[C@@H](Cc2ccccc2)N1Cc1ccc(CO)cc1,p24,PBMC,0.16 µM,-,2 clinical isolate,-,90%
O=C(O)CCCCCCCCCCCBr,cytopathic effect / XTT,CEM + CEM-SS,63.2 µM,-,IIIB,-,78.6%
COC(=O)C(O)[C@H]1[C@]2(C)C[C@]3(O)[C@@](O)(C(=O)C4=C(CC[C@]5(C)C4=CC(=O)O[C@H]5c4ccoc4)[C@]13C)[C@H]2OC(=O)C(C)C,luciferase / luminescence,SupT1,20 µM,-,NL4-3,pseudotyped,0%
O=C(O)CCCCCCCCCc1ccccc1,cytopathic effect / XTT,CEM + CEM-SS,20 µM,-,IIIB,-,10.9%
COc1cc([C@@H]2c3cc4c(cc3[C@@H](O[C@@H]3O[C@@H]5CO[C@@H](C)O[C@H]5[C@H](O)[C@H]3O)[C@H]3COC(=O)[C@H]23)OCO4)cc(OC)c1O,XTT,MT-2,0.3 µg/mL,-,IIIB,-,95%
CCCC(=O)O[C@H]1CN2CC[C@H](O)[C@@H]2[C@@H](O)[C@@H]1O,-,H9,40 µM,-,RF,-,99%
Nc1nc2c(ncn2[C@H]2CC[C@@H](CO)O2)c(=O)[nH]1,cytopathic effect / trypan blue,ATH8,100 µM,-,IIIB,-,100%
C[C@](N)(Cc1ccc(O)c(O)c1)C(=O)O,-,MT-4,1 µg/mL,-,LAV,-,0%
Cc1ccnc2c1NC(=O)c1cccnc1N2C1CC1,syncytia,HT4 + HT4-6C,0.316 µM,-,LAV-1,-,84%
C[C@H](CC(=O)C[C@@H](C)[C@H]1CC(=O)[C@@]2(C)C3=C(C(=O)C[C@]12C)[C@@]1(C)CC[C@H](O)C(C)(C)[C@@H]1C[C@@H]3O)C(=O)O,cytopathic effect / microscopy,MT-4,1000 µM,-,-,-,0%
Nc1nc(N)c2ncn([C@H]3CC[C@@H](CO)O3)c2n1,cytopathic effect / trypan blue,ATH8,20 µM,-,IIIB,-,90%
Oc1ccc(/C=C/c2cc(O)cc(O)c2)cc1,p24,PBMC,5 µM,-,EJC-R2,clinical isolate,0%
O=C(O)P(=O)(O)O,RT activity,PBL,32 µM,-,IIIB,21 d,72%
NS(=O)(=O)c1cc2c(cc1Cl)NC(C(Cl)Cl)NS2(=O)=O,-,MT-4,100 µg/mL,-,LAV,-,0%
Nc1nc(Cl)nc2c1ncn2[C@H]1CC[C@@H](CO)O1,cytopathic effect / trypan blue,ATH8,2 µM,-,IIIB,-,1%

Lines come from different laboratories, so protocols vary. Percent inhibition refers to the dose given; in toxicity tests it is the harm to the cells.